Source: publication PMC7493962, “Structure-based inhibitors targeting the alpha-helical domain of the Spiroplasma melliferum histone-like HU protein” (Scientific Reports, 2020)
Construct, isoform or probe ends are uncertain for at least one entry. For part of these data: At least one verdict was read from the data and is not stated in words by the source.

Key:
[1] = tested on: HUSpm (Spiroplasma melliferum); experiment: NMR CSP/CIP; conditions: NMR: 50 mM sodium phosphate pH 7.2, 0.1 mM NaN3, 30 C; recombinant protein
[2] = tested on: HUMgal (Mycoplasma gallisepticum); experiment: EMSA; conditions: no BDF inhibitor; EMSA: 20 mM Tris-HCl pH 8.0, 150 mM NaCl, 7% glycerol, 10 nM DNA, 10 min, temperature not stated; recombinant protein; label: 5'-HEX on strand 1
[3] = tested on: HUSpm_K35T (Spiroplasma melliferum); experiment: EMSA; conditions: no BDF4 inhibitor; EMSA: 20 mM Tris-HCl pH 8.0, 150 mM NaCl, 7% glycerol, 10 nM DNA, 10 min, temperature not stated; recombinant protein; label: 5'-HEX on strand 1

| Sequence | binding result [1] | binding result [2] | binding result [3] |
| --- | --- | --- | --- |
| AGTCTAGAGTGCAG (double strand) [DS14] | binds | – | – |
| AGTCTAGAGTGCAAGTTGAGTCCTT / AAGGACTCAACTGCACTCTAGACT [DS24a (24a)] | – | binds | binds |
